Compound potency records, mixed from different reports. Data source: NIAID ChemDB in PubChem.

Shared fields: tests in culture; species: HIV-1; read-out: EC50

Lines come from different laboratories, so protocols vary. ECn is the concentration giving n% inhibition of infection, replication or growth. An empty or dashed field is not shown.

structure	strain or isolate	cells	read by	result
CC(C)OC(O)c1cc(NC(=O)C2=C(c3ccccc3)OCCS2)ccc1Cl	-	-	-	33.3 µg/mL
O=C(O)CC[C@@H](NC(=O)c1ccccc1SSc1ccccc1C(=O)N[C@H](CCC(=O)O)C1CCCCC1)C1CCCCC1	IIIB	CEM	cytopathic effect / XTT	7.8 µM
CC(C)C1=C2[C@H]3CC[C@@H]4[C@@]5(C)CC[C@H](OC(=O)[C@H]6C[C@@H](C(=O)O)C6(C)C)C(C)(C)[C@@H]5CC[C@@]4(C)[C@]3(C)CC[C@@]2([C@@H](O)CNCC(C)(C)NC(=O)CN2CCS(=O)(=O)CC2)CC1=O	92HT599	MT-2	p24 / ELISA	<1 µM
O=c1[nH]c(SCc2cn[nH]n2)nc(-c2cccc([N+](=O)[O-])c2)c1Cl	ADA5	-	-	0.82 µg/mL
O=c1[nH]c(=O)n([C@@H]2O[C@@H](CO)[C@H](O)C2(F)F)cc1Cl	LAI	PBMC	RT activity	>100 µM
Nc1ncnc2c1ncn2[C@H]1C[C@@H](O)[C@H](CO)O1	BRU	CEM	syncytia	>1000 µM
O=c1[nH]c(SCc2cn[nH]n2)nc(-c2ccc(I)cc2)c1Cl	IIIB	-	-	0.9 µg/mL
CC(C)OC(O)c1cc(NC(=S)C2=C(C(F)(F)F)OCCS2)ccc1Cl	-	-	-	>6.5 µg/mL
Nc1ncnc2c1ncn2[C@@H]1O[C@@H](CO)[C@H](O)[C@H]1O	BRU	CEM	syncytia	>1000 µM
O=C(O)CC[C@H](Cc1ccccc1)NC(=O)c1ccccc1SSc1ccccc1C(=O)N[C@H](CCC(=O)O)Cc1ccccc1	IIIB	CEM	cytopathic effect / XTT	2.1 µM
O=c1[nH]c(=O)n([C@H]2O[C@@H](CO)[C@H](O)C2(F)F)cc1I	LAI	PBMC	RT activity	>100 µM
Nc1nc(=O)n([C@H]2C[C@H](O)[C@@H](CO)O2)cc1[N+](=O)[O-]	-	MT-4	-	>100 µM
Nc1ccn([C@H]2C[C@@H](O)[C@H](CO)O2)c(=O)n1	IIIB	MT-4	cytopathic effect / MTT	>10 µM
Cc1cc(C(=O)NC(C)(C)CNCC[C@@]23CC[C@]4(C)[C@H](CC[C@@H]5[C@@]6(C)CC[C@H](OC(=O)[C@H]7C[C@@H](C(=O)O)C7(C)C)C(C)(C)[C@@H]6CC[C@]54C)C2=C(C(C)C)C(=O)C3)n[nH]1	92HT599	MT-2	p24 / ELISA	<1 µM
O=C(O)CC(NC(=O)c1ccccc1SSc1ccccc1C(=O)NC(CC(=O)O)c1ccccc1)c1ccccc1	IIIB	CEM	cytopathic effect / XTT	6.9 µM
Nc1cn([C@H]2C[C@H](O)[C@@H](CO)O2)c(=O)nc1N	-	MT-4	-	>100 µM
Cc1cn([C@@H]2O[C@@H](CO)[C@H](O)[C@H]2O)c(=O)[nH]c1=O	BRU	CEM	syncytia	>1000 µM
CC(C)OC(O)c1cc(NC(=O)C2=C(C(F)(F)F)SCCS2)ccc1Cl	-	-	-	22.2 µg/mL
CC(C)(C)[C@H](NC(=O)c1ccccc1SSc1ccccc1C(=O)N[C@H](C(=O)O)C(C)(C)C)C(=O)O	IIIB	CEM	cytopathic effect / XTT	18 µM
CC(C)C1=C2[C@H]3CC[C@@H]4[C@@]5(C)CC[C@H](OC(=O)[C@H]6C[C@@H](C(=O)O)C6(C)C)C(C)(C)[C@@H]5CC[C@@]4(C)[C@]3(C)CC[C@@]2(CCN(CCN(C)C)Cc2ccncn2)CC1=O	92HT599	MT-2	p24 / ELISA	<1 µM
CC(C)[C@@H](CC(=O)O)NC(=O)c1ccccc1SSc1ccccc1C(=O)N[C@H](CC(=O)O)C(C)C	IIIB	CEM	cytopathic effect / XTT	5.1 µM
CC(C)C1=C2[C@H]3CC[C@@H]4[C@@]5(C)CC[C@H](OC(=O)[C@H]6C[C@@H](C(=O)O)C6(C)C)C(C)(C)[C@@H]5CC[C@@]4(C)[C@]3(C)CC[C@@]2(CC(=O)NCc2cccnc2)CC1=O	92HT599	MT-2	p24 / ELISA	<1 µM
O=c1[nH]c(=O)n([C@H]2O[C@@H](CO)[C@H](O)C2(F)F)cc1Cl	LAI	PBMC	RT activity	>100 µM
Nc1ccc(C[C@H](NC(=O)c2ccccc2SSc2ccccc2C(=O)N[C@@H](Cc2ccc(N)cc2)C(=O)O)C(=O)O)cc1	IIIB	CEM	cytopathic effect / XTT	>15 µM
O=c1[nH]c(=O)n([C@H]2CC[C@@H](CO)O2)cc1[N+](=O)[O-]	-	MT-4	-	>100 µM
CC(C)OC(O)c1cc(NC(=S)C2=COCCS2)ccc1Cl	-	-	-	>8 µg/mL
CC(C)C1=C2[C@H]3CC[C@@H]4[C@@]5(C)CC[C@H](OC(=O)[C@H]6C[C@@H](C(=O)O)C6(C)C)C(C)(C)[C@@H]5CC[C@@]4(C)[C@]3(C)CC[C@@]2(CC(=O)NC[C@@H]2CCCN2)CC1=O	92HT599	MT-2	p24 / ELISA	<1 µM
O=c1[nH]cnc2c1ncn2[C@@H]1O[C@@H](CO)[C@H](O)C1(F)F	LAI	PBMC	RT activity	>100 µM
Cc1o[nH]c(=O)c1C(=O)NC(C)(C)CNC(=O)C[C@@]12CC[C@]3(C)[C@H](CC[C@@H]4[C@@]5(C)CC[C@H](OC(=O)[C@H]6C[C@@H](C(=O)O)C6(C)C)C(C)(C)[C@@H]5CC[C@]43C)C1=C(C(C)C)C(=O)C2	92HT599	MT-2	p24 / ELISA	<1 µM
O=c1[nH]c(=O)n([C@H]2O[C@@H](CO)[C@H](O)C2(F)F)cc1Br	LAI	PBMC	RT activity	>100 µM
CC(C)C[C@@H](CC(=O)O)NC(=O)c1ccccc1SSc1ccccc1C(=O)N[C@H](CC(=O)O)CC(C)C	IIIB	CEM	cytopathic effect / XTT	3.4 µM
Nc1nc2c(ncn2[C@@H]2O[C@@H](CO)[C@H](O)C2(F)F)c(=O)[nH]1	LAI	PBMC	RT activity	>100 µM
CC1=C(C(=O)Nc2ccc(Cl)c(C(O)OC(C)C)c2)SCCO1	-	-	-	>82.5 µg/mL
O=c1[nH]c(=O)n([C@@H]2O[C@@H](CO)[C@H](O)C2(F)F)cc1Br	LAI	PBMC	RT activity	>100 µM
O=C(N[C@@H](Cc1ccccc1)C(=O)O)c1ccccc1SSc1ccccc1C(=O)N[C@@H](Cc1ccccc1)C(=O)O	IIIB	CEM	cytopathic effect / XTT	>100 µM
Nc1cn([C@@H]2C[C@H](O)[C@@H](CO)O2)c(=O)nc1N	-	MT-4	-	>100 µM

3 of the rows above, restated:

CC(C)OC(O)c1cc(NC(=O)C2=C(c3ccccc3)OCCS2)ccc1Cl ; result: 33.3 µg/mL
Nc1ccn([C@H]2C[C@@H](O)[C@H](CO)O2)c(=O)n1 ; strain or isolate: IIIB ; cells: MT-4 ; read by: cytopathic effect / MTT ; result: >10 µM
Nc1cn([C@@H]2C[C@H](O)[C@@H](CO)O2)c(=O)nc1N ; cells: MT-4 ; result: >100 µM